From article PMC4732737

How the values were obtained:
Experiment in all cases: ELISA
[1] = target: AMC008 SOSIP.v3.2-D7324 trimer (HIV-1)
[2] = target: AMC008 SOSIP.v4.1-D7324 trimer (HIV-1)
[3] = target: AMC008 SOSIP.v4.2-D7324 trimer (HIV-1)
[4] = target: BG505 SOSIP.664 A316W-D7324 trimer (HIV-1)
[5] = target: BG505 SOSIP.664 E64K-D7324 trimer (HIV-1)
[6] = target: BG505 SOSIP.664 H66R-D7324 trimer (HIV-1)
[7] = target: ZM197M SOSIP.v4.1-D7324 trimer (HIV-1)
[8] = target: ZM197M SOSIP.v4.2-D7324 trimer (HIV-1)

Substance “CD4-IgG2 (from UniProt P01730) (Fc fusion)” has a binding as percent of the corresponding SOSIP.664 trimer (from EC50) [1] of 119%, a binding as percent of the corresponding SOSIP.664 trimer (from EC50) [2] of 81% and a binding as percent of the corresponding SOSIP.664 trimer (from EC50) [3] of 68%. For the same substance, the binding as percent of the corresponding SOSIP.664 trimer (from EC50) [4] was 81%, the binding as percent of the corresponding SOSIP.664 trimer (from EC50) [5] was 65% and the binding as percent of the corresponding SOSIP.664 trimer (from EC50) [6] was 68%. The binding as percent of the corresponding SOSIP.664 trimer (from EC50) [7] was 62% and the binding as percent of the corresponding SOSIP.664 trimer (from EC50) [8] was 46%.
